Measurements from paper PMC10787639 (Frontiers in Molecular Biosciences, 2023).

Tested on: Ct PCNA
Test: Protein X-ray crystallography of PIP peptide-Ct PCNA complex
Assay type: binding, Chaetomium thermophilum
Conditions: crystal structure, Ct PolD3 2.45 Å (PDB 8P9O), Ct Fen1 1.95 Å (PDB 8Q7I), 3_10 helix, Q-pocket, 2-fork plug

## GAQQARIEGFFKVIP [Ct Fen1 PIP peptide, 15mer Ct Fen1 peptide spanning residues 339–353, commercially synthesised (GenScript), purity 99.1%]
  binding mode on Ct PCNA: canonical binding mode
Listed as Ct Fen1 nuclease PIP peptide
  binding mode on Ct PCNA: canonical binding
Listed as Fen1 PIP peptide
  binding mode on Ct PCNA: strictly canonical
